Source: article PMC11546692 (International Journal of Molecular Sciences, 2024)

What was measured:
[1] = GFAAS arsenic distribution in mouse tissue; settings: PAO 50 μg/kg + Gem 50 mg/kg treated mice
Skp2 = Skp2 immunohistochemical staining of xenografted tumors; type: in vivo, Scid mice
MiaPaCa-2 cells = test: MTT assay with or without macropinocytosis inhibitor amiloride; settings: MiaPaCa-2, 24 h
[2] = tested on: MiaPaCa-2 human pancreatic cancer cells xenograft; test: Subcutaneous MiaPaCa-2 xenograft tumor growth in Scid mice; type: in vivo

**Q.** What does the source list for `O=[As]c1ccccc1` (centres unmarked)?
**A.** As concentration in livers relative to hearts [1]: twice; arsenic (As) in brain [1]: no detectable As; arsenic (As) in heart [1]: significant As detected; arsenic (As) in kidney [1]: no detectable As; arsenic (As) in liver [1]: significant As detected; levels of Skp2 in tumors (Skp2; 50 μg/kg i.p., vs non-treatment control, IHC): reduced; levels of Skp2 in tumors, combination with gemcitabine (Skp2; PAO 50 μg/kg plus gemcitabine 50 mg/kg, vs single reagent treatments): did not further reduce the expression of Skp2; IC50 (MiaPaCa-2 cells; amiloride 25 μM): 1500 nM; IC50 (MiaPaCa-2 cells; no amiloride): 1500 nM; pancreatic tumor growth (tumor volume, tumor weight) ([2]; 50 μg/kg i.p. every other day, vs saline control): significantly suppressed pancreatic tumor growth; further reduction in tumor volumes and weight on top of Gem ([2]; PAO 50 μg/kg i.p. every other day plus Gem 50 mg/kg every 4 days, vs Gem alone): did not reach statistical significance
